# Measured values reported in the supplement of paper PMC9931576.
# Human monoclonal antibodies against the spike receptor-binding domain (heavy:light variable regions). IC50 against pseudoviruses bearing the spike of naturally observed variants; lower = stronger; >10 µg/ml means not reached at the top dose. No active / inactive call. The stated detection limit is 0.0005 µg/ml; values near or below 0.001 µg/ml lie at the floor of the assay.
# B1: XGv-039 (protein)
# chain 1: EVQLVESGGALVQPGGSLRLSCAVSGFTFSTYDMHWVRQTTGGRLEWVSTIGTAGDTYYSDSVKGRFTISRENAKNSLYLQMNSLRAGDTAVYYCARGGNGYHWYFDLWGRGTLVSVSS
# chain 2: DIQMTQSPSSLSASVGDRVTITCRASQSISSYLNWYQQKPGKAPKLLIYASSTLQSGVPSRFSGSGSGTDFTLTISSLQPEDFATYYCQQSYTMPPVTFGQGTRLDIK
# B2: XGv-018 (protein)
# chain 1: QVQLVESGGGVVQPGRSLRLSCAASGFTFSTYGMHWVRQAPGKGLEWVAVILNDGSGKLYADSVKGRFTISRDNSKNTLYLQMSSLRAEDTAVYFCARDQGELVTYFDYWGQGTLVTVSS
# chain 2: DIQMTQSPSSLSASVGDRVTITCRASQSISRYLNWYQHKPGKAPKLLIYTTSNLQSGVPSRFSGSGSGTDFTLTISSLHPEDFATYYCQQSYNTPSWTFGQGTKVEIK
# B3: XGv-014 (protein)
# chain 1: EVQLVESGGGLVRPGRSLTLSCAASGFMFDDYAMHWVRQPPGKGLEWVSGISWNSASVGYADSVKGRFTISRDNAKNSLYLRMNSLRPEDTALYYCAKLGVTTAMVKSYFDHWGQGTLVTVSS
# chain 2: EIVMTQSPATLSLSPGERATLSCRASQSVSGNLAWYQQRPGQVPRLLIYGTSTRATGIPARFSGSGSGTEFTLTISSLQSEDFAVYYCQQYNNWPPGVTFGPGTKVDIK
# B4: BD55-914 (protein)
# chain 1: QVQLVQSGAEVKKPGASVKVSCKASGNTFFSSDINWVRQTTGQGLEWMGWMNPNSGNRGSAQRFQGRITMTRNTSISTAYMELSSLISEDTAVYYCASGVGRGRAGTFHEDAFDIWGQGTKVTVSS
# chain 2: DIQMTQSPSSLSASVGDRVTITCRASQGIRNSLAWYQQRPGKAPKLLLYGASILETGVPSRFSGSGSGTDYTLTISSLQPEDFATYYCQHYYTTPFTFGPGTKVDFK
# B5: BD55-906 (protein)
# chain 1: EVQLVESGGGLVQPGGSLRLSCAASGLTVSSNYMSWVRQAPGKGLEWVSVIYSGGSTFYADSVKGRFTISRHNSKDTLYLQMNSLRVEDTAVYYCARDLIYYGMDVWGQGTTVTVSS
# chain 2: DIQLTQSPSFLSASVGDRVTITCRASQGISNYLAWYQQKPGKAPKLLIYAASTLQSGVPSRFSGSGSGTEFTLTISSLQPEDFATYYCQQLDSYPPAFGQGTRLEIK
# B6: XG2v-098 (protein)
# chain 1: EVQLVESGGGLVQPGGSLRLSCAASGFTVSRNYMSWVRQAPGKGLEWVSLIYSGGSTDYADSVQGRFTISRDNSKNTLYLQMNSLRAEDTAVYYCARDLQFYGMDVWGQGTTVTVSS
# chain 2: DIQMTQSPSSVSASVGDRVTITCRASQGISSWLAWYQQKPGKAPKLLIYAASTLQSGVPLRFSGSGSGTDFTLTISSLQPEDFAAYYCQQANSFPFTFGPGTKVDIK
# B7: BD55-947 (protein)
# chain 1: EVQLVESGGGVVQPGGSLRLSCAASGFTFDNYAIHWVRQAPGRGLEWVSLISGDGTSTYYADSVKGRFTISRDNSKNSLYMQMDSLRTEDTALYYCAKDRDGGLLWGQGTLVTVSS
# chain 2: SYELTQPPSVSVSPGQTARITCSGDALPNQYAYWYQQKPGQAPVLVIYKDSERPSGIPERFSGSSSGTTVTLTISGVQAEDEADYYCQSADSSGPYFYVFGTGTKVTVL
# B8: XGv-017 (protein)
# chain 1: EVQLVESGGGLIQPGGSLRLSCAASGVTVSSNYMNWVRQAPGKGLEWVSVIYPGGTRDYSDSVKGRFTISRDSSKNTLYLQMNSLRDEDTAFYYCARDLVVYGMDVWGQGTTVTVTS
# chain 2: DIQLTQSPSSLSASVGDRVTITCRASQGISSYLAWYQQKPGKAPKLLIYAASTLQSGVPSRFSGSGSGTDFTLTISSLQPEDFAAYYCQLLNTYPLTFGGGTKVEIK
# B9: XGv-038 (protein)
# chain 1: QVQLVESGGGVVQPGRSLRLSCAASGFTFNNYGIHWVRQAPGKGLEWVAVIWYDGTNKYYADSVKGRFTISRDNSKNTVYLQMNSLRAEDTAVYYCARDYEITMAAPDYWGQGTLVTVSS
# chain 2: DVVMTQSPLSLPVTLEQPASISCRSSQSLVSSDGNTYLNWFQQRPGQSPRRLIYKVSNRDSGVPDRFSGSGSGTDFTLKINRVEAEDVGIYYCMQGSHWPPTFGGGTKVEIK
# B10: XGv-030 (protein)
# chain 1: EVQLVESGGGLVQPGGSLRLSCAASGFSFSTYSLNWVRQAPGKGLEWVSYISSSSITIYYAHSVKGRFTISRDDAKNSLYLQVNNLRDEDTAVYYCARVLGFSDYVWGSYQRGLYGMDVWGQGTTVSVSS
# chain 2: QSALTQPASVSGSPGQSIAISCTGTSSDVGGYDFVSWYQQHPGKAPKLLIYDVTNRPSGISNRFSGSKSGNTASLTISGLQTEDEADYYCSSFTSSNTLPFVFGTGTTVTVL
# B11: BD55-902 (protein)
# chain 1: QVQLVQSGAEVKKPGSSVKVSCKASRGTFSSYAINWVRQAPGQGLEWMGRIIPILGIVNYAQKFQGRVTLTADKSTSTAYMELSSLRSEDTAVFYCARGEYSGYDGDDYYYYYGIDVWGQGTTVTVSS
# chain 2: SYELTQPPSVSVSPGQTARITCSGDALSKQYAYWYQQKPGQAPVLIIYKDSERPSGIPERFSGSSSGTTVTLTISGVQAEDEADYYCQSADSSNTYVLFGGGTKLTVL
# B12: BD55-913 (protein)
# chain 1: EVQLVQSGAEVKKPGESLRISCKGSGYSFSTYWITWVRQMPGKGLEWMGKIDPSDSYTNYSPSFQGHVTFSADKSISTAYLQWSSLKASDTAMYYCARVDYDILTDLYYFDYWGQGTLVTVSS
# chain 2: DIQMTQSPSSLSASVGDRVTITCRASQSIGSYLNWYQQKPGKAPELLIYAASSLQSGVPSRFSGSGSGTDFTLTISSLQPEDFATYYCQQSYSTSFTFGPGTEVDIK
# B13: BD55-931 (protein)
# chain 1: EEQLVESGGGLVQPGRSLRLSCVASGFSFDDYAMHWVRQAPGKGLEWVSGISWNSGIIGYADSVKGRFTISRDNAKNSLYLQMRSLRTEDTALYYCANNLEAAAGTRAFDIWGHGTMVTVSS
# chain 2: DIVMTQSPDSLAVSLGERATIKCKSSQSVLYSSNNKNYLAWYQQKPGQPPKVYIYWASTRALGVPDRFSGSGSGTEFTLTISSLQAEDVAVYYCQQYHTTPYTFGQGTKLEIK
# Target: SARS-CoV-2 Omicron BA.1 spike pseudovirus
# Test: pseudovirus neutralization IC50; higher = weaker neutralization
# Method: (§1)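 Single-round VSV luciferase pseudovirus mixed with antibody dilutions for 1 h and put on Huh-7 cells for about a day; IC50 from the dose curve.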
row,Binder,pseudovirus neutralization IC50 [µg/mL]
1,B1,> 10
2,B2,6.5
3,B3,> 10
4,B4,> 10
5,B5,0.593
6,B6,> 10
7,B7,> 10
8,B8,1.88
9,B9,1.64
10,B10,1.33
11,B11,> 10
12,B12,> 10
13,B13,> 10

# Target: SARS-CoV-2 Omicron BA.2 spike pseudovirus
# Test: as above
# Method: as §1
row,Binder,pseudovirus neutralization IC50 [µg/mL]
1,B1,> 10
2,B2,5.3
3,B3,8.91
4,B4,> 10
5,B5,0.349
6,B6,> 10
7,B7,> 10
8,B8,8.83
9,B9,1.48
10,B10,1.33
11,B11,> 10
12,B12,> 10
13,B13,> 10

# Target: SARS-CoV-2 Omicron BA.2.75 spike pseudovirus
# Test: as above
# Method: as §1
row,Binder,pseudovirus neutralization IC50 [µg/mL]
1,B1,> 10
2,B2,5.35
3,B3,> 10
4,B4,> 10
5,B5,> 10
6,B6,> 10
7,B7,> 10
8,B8,> 10
9,B9,1.2
10,B10,1.77
11,B11,> 10
12,B12,> 10
13,B13,> 10

# Target: SARS-CoV-2 Omicron BA.5 spike pseudovirus
# Test: as above
# Method: as §1
row,Binder,pseudovirus neutralization IC50 [µg/mL]
1,B1,> 10
2,B2,4.12
3,B3,> 10
4,B4,> 10
5,B5,4.94
6,B6,> 10
7,B7,> 10
8,B8,> 10
9,B9,2.52
10,B10,1.77
11,B11,> 10
12,B12,> 10
13,B13,> 10

# Target: SARS-CoV-2 Omicron BQ.1.1 spike pseudovirus
# Test: as above
# Method: as §1
row,Binder,pseudovirus neutralization IC50 [µg/mL]
1,B1,> 10
2,B2,4.85
3,B3,> 10
4,B4,> 10
5,B5,> 10
6,B6,> 10
7,B7,> 10
8,B8,> 10
9,B9,> 10
10,B11,> 10
11,B12,> 10
12,B13,> 10

# Target: SARS-CoV-2 Omicron XBB spike pseudovirus
# Test: as above
# Method: as §1
row,Binder,pseudovirus neutralization IC50 [µg/mL]
1,B1,> 10
2,B2,3.71
3,B3,> 10
4,B4,> 10
5,B5,> 10
6,B6,> 10
7,B7,> 10
8,B8,> 10
9,B9,> 10
10,B11,> 10
11,B12,> 10
12,B13,> 10

# Target: SARS-CoV-2 early D614G spike pseudovirus
# Test: as above
# Method: as §1
row,Binder,pseudovirus neutralization IC50 [µg/mL]
1,B1,> 10
2,B2,1.37
3,B3,9.53
4,B4,> 10
5,B5,0.00367
6,B6,0.0935
7,B7,> 10
8,B8,0.0279
9,B9,2.52
10,B10,4.59
11,B11,> 10
12,B12,4.18
13,B13,> 10
